Assay results reported in patent publication US6974685B2, “High production method of prenyl alcohol using saccharomyces cells” (Toyota Jidosha Kabushiki Kaisha 1, priority 2000, dated 2005).

Legend:
Format in all cases: cell-based
[1] = tested on: IFO 1892 Saccharomyces kluyeri; assay: Test-tube culture with ergosterol and squalene synthesis inhibitor SQAD, with or without glucose and soybean oil (Example 8)
[2] = tested on: IFO 0974 Kuraishia capsulata; assay: as above
[3] = tested on: IFO 0215 Saccharomyces unisporus; assay: as above
[4] = tested on: IFO 0622 Candida glabrata; assay: as above
[5] = tested on: IFO 0948 Komagataella pastoris; assay: as above
[6] = tested on: IFO 0717 Yarrowia lopolytica; assay: as above
[7] = tested on: IFO 3762 Staphylococcus epidermidis; assay: Control culture of bacterial strain in KB medium (Example 11, Table 14); details: treated with phosphatase
[8] = tested on: IFO 3032 Baccilus amyloliquefaciens; assay: as above; details: treated with phosphatase
[9] = YM + 4 mg/L ergosterol, SQAD 0 mg/L, 3 days
[10] = YM + 4 mg/L ergosterol, SQAD 0 mg/L, 7 days
[11] = YM + 4 mg/L ergosterol, SQAD 1 mg/L, 3 days
[12] = YM + 4 mg/L ergosterol, SQAD 1 mg/L, 7 days
[13] = YM + 4 mg/L ergosterol, SQAD 20 mg/L, 3 days
[14] = YM + 4 mg/L ergosterol, SQAD 20 mg/L, 7 days
[15] = YM + 5% glucose + 1% soybean oil + 4 mg/L ergosterol, SQAD 0 mg/L, 3 days
[16] = YM + 5% glucose + 1% soybean oil + 4 mg/L ergosterol, SQAD 0 mg/L, 7 days
[17] = YM + 5% glucose + 1% soybean oil + 4 mg/L ergosterol, SQAD 1 mg/L, 3 days
[18] = YM + 5% glucose + 1% soybean oil + 4 mg/L ergosterol, SQAD 1 mg/L, 7 days
[19] = YM + 5% glucose + 1% soybean oil + 4 mg/L ergosterol, SQAD 20 mg/L, 3 days
[20] = YM + 5% glucose + 1% soybean oil + 4 mg/L ergosterol, SQAD 20 mg/L, 7 days

Which results are given for `C=CC(C)(O)CCC=C(C)CCC=C(C)C` (stereo not shown) [NE, nerolidol]?
Cell fraction [1, 9]: 0.0 μg/L of culture solution; Supernatant fraction [1, 9]: 0.0 μg/L of culture solution; Cell fraction [1, 10]: 0.0 μg/L of culture solution; Supernatant fraction [1, 10]: 0.0 μg/L of culture solution; Cell fraction [1, 11]: 0.0 μg/L of culture solution; Supernatant fraction [1, 11]: 0.0 μg/L of culture solution; Cell fraction [1, 12]: 0.0 μg/L of culture solution; Supernatant fraction [1, 12]: 0.0 μg/L of culture solution; Cell fraction [1, 13]: 0.0 μg/L of culture solution; Supernatant fraction [1, 13]: 0.0 μg/L of culture solution; Cell fraction [1, 14]: 0.0 μg/L of culture solution; Supernatant fraction [1, 14]: 0.0 μg/L of culture solution; Cell fraction [1, 15]: 0.0 μg/L of culture solution; Supernatant fraction [1, 15]: 0.0 μg/L of culture solution; Cell fraction [1, 16]: 0.0 μg/L of culture solution; Supernatant fraction [1, 16]: 0.0 μg/L of culture solution; Cell fraction [1, 17]: 0.0 μg/L of culture solution; Supernatant fraction [1, 17]: 0.0 μg/L of culture solution; Cell fraction [1, 18]: 0.0 μg/L of culture solution; Supernatant fraction [1, 18]: 23.5 μg/L of culture solution; Cell fraction [1, 19]: 0.0 μg/L of culture solution; Supernatant fraction [1, 19]: 0.0 μg/L of culture solution; Cell fraction [1, 20]: 0.0 μg/L of culture solution; Supernatant fraction [1, 20]: 44.1 μg/L of culture solution; Cell fraction [2, 9]: 0.0 μg/L of culture solution; Supernatant fraction [2, 9]: 0.0 μg/L of culture solution; Cell fraction [2, 10]: 0.0 μg/L of culture solution; Supernatant fraction [2, 10]: 0.0 μg/L of culture solution; Cell fraction [2, 11]: 0.0 μg/L of culture solution; Supernatant fraction [2, 11]: 0.0 μg/L of culture solution; Cell fraction [2, 12]: 0.0 μg/L of culture solution; Supernatant fraction [2, 12]: 0.0 μg/L of culture solution; Cell fraction [2, 13]: 0.0 μg/L of culture solution; Supernatant fraction [2, 13]: 0.0 μg/L of culture solution; Cell fraction [2, 14]: 0.0 μg/L of culture solution; Supernatant fraction [2, 14]: 0.0 μg/L of culture solution; Cell fraction [2, 15]: 0.0 μg/L of culture solution; Supernatant fraction [2, 15]: 0.0 μg/L of culture solution; Cell fraction [2, 16]: 0.0 μg/L of culture solution; Supernatant fraction [2, 16]: 0.0 μg/L of culture solution; Cell fraction [2, 17]: 0.0 μg/L of culture solution; Supernatant fraction [2, 17]: 0.0 μg/L of culture solution; Cell fraction [2, 18]: 0.0 μg/L of culture solution; Supernatant fraction [2, 18]: 0.0 μg/L of culture solution; Cell fraction [2, 19]: 0.0 μg/L of culture solution; Supernatant fraction [2, 19]: 0.0 μg/L of culture solution; Cell fraction [2, 20]: 0.0 μg/L of culture solution; Supernatant fraction [2, 20]: 35.9 μg/L of culture solution; Cell fraction [3, 9]: 0.0 μg/L of culture solution; Supernatant fraction [3, 9]: 0.0 μg/L of culture solution; Cell fraction [3, 10]: 0.0 μg/L of culture solution; Supernatant fraction [3, 10]: 0.0 μg/L of culture solution; Cell fraction [3, 11]: 0.0 μg/L of culture solution; Supernatant fraction [3, 11]: 0.0 μg/L of culture solution; Cell fraction [3, 12]: 0.0 μg/L of culture solution; Supernatant fraction [3, 12]: 0.0 μg/L of culture solution; Cell fraction [3, 13]: 0.0 μg/L of culture solution; Supernatant fraction [3, 13]: 0.0 μg/L of culture solution; Cell fraction [3, 14]: 0.0 μg/L of culture solution; Supernatant fraction [3, 14]: 0.0 μg/L of culture solution; Cell fraction [3, 15]: 0.0 μg/L of culture solution; Supernatant fraction [3, 15]: 16.3 μg/L of culture solution; Cell fraction [3, 16]: 0.0 μg/L of culture solution; Supernatant fraction [3, 16]: 19.6 μg/L of culture solution; Cell fraction [3, 17]: 0.0 μg/L of culture solution; Supernatant fraction [3, 17]: 12.2 μg/L of culture solution; Cell fraction [3, 18]: 0.0 μg/L of culture solution; Supernatant fraction [3, 18]: 27.3 μg/L of culture solution; Cell fraction [3, 19]: 0.0 μg/L of culture solution; Supernatant fraction [3, 19]: 67.4 μg/L of culture solution; Cell fraction [3, 20]: 8.6 μg/L of culture solution; Supernatant fraction [3, 20]: 466.6 μg/L of culture solution; Cell fraction [4, 9]: 0.0 μg/L of culture solution; Supernatant fraction [4, 9]: 0.0 μg/L of culture solution; Cell fraction [4, 10]: 0.0 μg/L of culture solution; Supernatant fraction [4, 10]: 0.0 μg/L of culture solution; Cell fraction [4, 11]: 0.0 μg/L of culture solution; Supernatant fraction [4, 11]: 0.0 μg/L of culture solution; Cell fraction [4, 12]: 0.0 μg/L of culture solution; Supernatant fraction [4, 12]: 0.0 μg/L of culture solution; Cell fraction [4, 13]: 0.0 μg/L of culture solution; Supernatant fraction [4, 13]: 0.0 μg/L of culture solution; Cell fraction [4, 14]: 0.0 μg/L of culture solution; Supernatant fraction [4, 14]: 0.0 μg/L of culture solution; Cell fraction [4, 15]: 0.0 μg/L of culture solution; Supernatant fraction [4, 15]: 0.0 μg/L of culture solution; Cell fraction [4, 16]: 0.0 μg/L of culture solution; Supernatant fraction [4, 16]: 11.6 μg/L of culture solution; Cell fraction [4, 17]: 0.0 μg/L of culture solution; Supernatant fraction [4, 17]: 9.4 μg/L of culture solution; Cell fraction [4, 18]: 0.0 μg/L of culture solution; Supernatant fraction [4, 18]: 17.2 μg/L of culture solution; Cell fraction [4, 19]: 0.0 μg/L of culture solution; Supernatant fraction [4, 19]: 422.2 μg/L of culture solution; Cell fraction [4, 20]: 138.0 μg/L of culture solution; Supernatant fraction [4, 20]: 1256.9 μg/L of culture solution; Cell fraction [5, 9]: 0.0 μg/L of culture solution; Supernatant fraction [5, 9]: 0.0 μg/L of culture solution; Cell fraction [5, 10]: 0.0 μg/L of culture solution; Supernatant fraction [5, 10]: 0.0 μg/L of culture solution; Cell fraction [5, 11]: 0.0 μg/L of culture solution; Supernatant fraction [5, 11]: 0.0 μg/L of culture solution; Cell fraction [5, 12]: 0.0 μg/L of culture solution; Supernatant fraction [5, 12]: 0.0 μg/L of culture solution; Cell fraction [5, 13]: 0.0 μg/L of culture solution; Supernatant fraction [5, 13]: 0.0 μg/L of culture solution; Cell fraction [5, 14]: 0.0 μg/L of culture solution; Supernatant fraction [5, 14]: 0.0 μg/L of culture solution; Cell fraction [5, 15]: 0.0 μg/L of culture solution; Supernatant fraction [5, 15]: 0.0 μg/L of culture solution; Cell fraction [5, 16]: 0.0 μg/L of culture solution; Supernatant fraction [5, 16]: 0.0 μg/L of culture solution; Cell fraction [5, 17]: 0.0 μg/L of culture solution; Supernatant fraction [5, 17]: 0.0 μg/L of culture solution; Cell fraction [5, 18]: 0.0 μg/L of culture solution; Supernatant fraction [5, 18]: 0.0 μg/L of culture solution; Cell fraction [5, 19]: 0.0 μg/L of culture solution; Supernatant fraction [5, 19]: 17.2 μg/L of culture solution; Cell fraction [5, 20]: 0.0 μg/L of culture solution; Supernatant fraction [5, 20]: 34.2 μg/L of culture solution; Cell fraction [6, 9]: 0.0 μg/L of culture solution; Supernatant fraction [6, 9]: 0.0 μg/L of culture solution; Cell fraction [6, 10]: 0.0 μg/L of culture solution; Supernatant fraction [6, 10]: 0.0 μg/L of culture solution; Cell fraction [6, 11]: 0.0 μg/L of culture solution; Supernatant fraction [6, 11]: 0.0 μg/L of culture solution; Cell fraction [6, 12]: 0.0 μg/L of culture solution; Supernatant fraction [6, 12]: 0.0 μg/L of culture solution; Cell fraction [6, 13]: 0.0 μg/L of culture solution; Supernatant fraction [6, 13]: 0.0 μg/L of culture solution; Cell fraction [6, 14]: 0.0 μg/L of culture solution; Supernatant fraction [6, 14]: 0.0 μg/L of culture solution; Cell fraction [6, 15]: 0.0 μg/L of culture solution; Supernatant fraction [6, 15]: 0.0 μg/L of culture solution; Cell fraction [6, 16]: 0.0 μg/L of culture solution; Supernatant fraction [6, 16]: 0.0 μg/L of culture solution; Cell fraction [6, 17]: 0.0 μg/L of culture solution; Supernatant fraction [6, 17]: 2.4 μg/L of culture solution; Cell fraction [6, 18]: 0.0 μg/L of culture solution; Supernatant fraction [6, 18]: 19.0 μg/L of culture solution; Cell fraction [6, 19]: 0.0 μg/L of culture solution; Supernatant fraction [6, 19]: 19.0 μg/L of culture solution; Cell fraction [6, 20]: 0.0 μg/L of culture solution; Supernatant fraction [6, 20]: 156.7 μg/L of culture solution; Cell fraction [7]: 0.0 μg/L of culture solution; Supernatant fraction [7]: 0.0 μg/L of culture solution; Cell fraction [8]: 0.0 μg/L of culture solution; Supernatant fraction [8]: 0.0 μg/L of culture solution
